Measured values taken from publication PMC5618700 (Journal of Cellular and Molecular Medicine, 2017).

Target: T1, SrtAΔN81 (sortase A) (Streptococcus pneumoniae, UniProt A0A0H2ZM58)
T1 construct: gene srtA

Structure (SMILES): O=C(O[C@@H]1Cc2c(O)cc(O)cc2O[C@@H]1c1cc(O)c(O)c(O)c1)c1cc(O)c(O)c(O)c1 [epigallocatechin gallate]
- remaining enzyme activity (%): peptidase activity of SrtAΔN81 was significantly inhibited following pre‐incubation with EGCG
